Measurements taken from ChEMBL document CHEMBL4431312, “Development of an Orally Available and Central Nervous System (CNS) Penetrant Toxoplasma gondii Calcium-Dependent Protein Kinase 1 (TgCDPK1) Inhibitor with Minimal Human Ether-a-go-go-Related Gene (hERG) Activity for the Treatment of Toxoplasmosis” (J Med Chem, 2016).

Target: Proto-oncogene tyrosine-protein kinase Src (Gallus gallus, UniProt P00523)

Structure (SMILES): CN1CCC(Cn2nc(-c3ccc4cc(OCC(C)(C)O)ccc4c3)c3c(N)ncnc32)CC1
- IC50: > 10 µM
